For at least one entry, the source does not settle the construct or the ends of the probe. At least one verdict was read from the data and is not stated in words by the source.

Data set [1] concerns VapB29 + VapC29. Put plainly: EMSA. The conditions noted are these: recombinant protein; protein details: C-terminal His; label: 3' DIG-ddUTP. A general note: Mobility shift assays separate free from complexed probe on a gel.
Data set [2] relates to VapB29 + VapC29. The data set can be described thus: competition with a labelled probe. The conditions noted are these: unlabelled 25x/50x vs labelled N2; recombinant protein; protein details: C-terminal His; label: 3' DIG-ddUTP.

As to “GGAAAAAATCGGCGCGCGCATCACGATGCAGCGATGTTAGGATGAGGCGG (double strand) [Oligo 5 Bind 2 (Mut. 2)]”, the binding result in the data set with VapB29 + VapC29 [1] and in the data set with VapB29 + VapC29 [2] was “binds” each time.
Take “GGTGAGCGTCGGCGCGCGCATCACGATGCAGCGATGTTAGGAAAAAAAAG (double strand) [Oligo 5 Bind 4 (Mut. 4)]”: the binding result in the data set on VapB29 + VapC29 [1] is reported as “binds”.

Source of the values: paper PMC6118392, “VapC proteins from Mycobacterium tuberculosis share ribonuclease sequence specificity but differ in regulation and toxicity” (PLoS ONE, 2018).
